US12569557B2, “Targeting moDC to enhance vaccine efficacy on mucosal surface” (UNIVERSITY OF FLORIDA RESEARCH FOUNDATION, INCORPORATED, priority 2018, dated 2026)

Tested on: lung DC subsets and alveolar macrophages
Test: Uptake of FITC-conjugated CDG by lung cells after intranasal administration (flow cytometry)
Assay type: in vivo, mice
Settings: i.n.

2′-Fluo-AHC-CDG [FITC-conjugated CDG]
CDG-FITC uptake by lung moDCs (FITC+ lung cells after 5 hrs): no CDG-FITC
Fluorescent CDG uptake by alveolar macrophages (CD11c+MHC IIint) (in vivo): took up most of the fluorescent CDG
